Article PMC8593223, “Rapid Identification of Secondary Structure and Binding Site Residues in an Intrinsically Disordered Protein Segment” (Frontiers in Genetics, 2021)

Target: MazE6 G59C, displayed on the yeast cell surface (M. tuberculosis, UniProt P9WJ87 1-82, G59 substituted to a non-charged cysteine residue)
Assay: flow cytometry on cells

B1: MazF6 toxin, (His)6MazF6(FLAG)3 (natural protein)
chain: MVISRAEIYWADLGPPSGSQPAKRRPVLVIQSDPYNASRLATVIAAVITSNTALAAMPGNVFLPATTTRLPRDSVVNVTAIVTLNKTDLTDRVGEVPASLMHEVDRGLRRVLDL
  MFI^ratio (binding:expression MFI, normalised to WT): 0.8
